PubChem BioAssay AID1259414 – Drosophila RNAi Screening Center | 2018
The deposit covers about 24,000 reagents; this is an unselected part of those with a known target gene and a result. Over the whole deposit, about 1,210 (5%) are marked active. 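Inactive calls also include excluded dsRNAs with several or no targets, genes unexpressed in JW18, and well A1, regardless of score.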 Names joined by + are all predicted targets of the reagent.

Test: 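Host factors increasing or decreasing Wolbachia levels in cultured fly cells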 (primary screen)
Cell system: Drosophila JW18 cells infected with Wolbachia
Reagent: long dsRNA against Drosophila genes, 0.25 µg dsRNA per well of a 384-well plate
Timing: 5 days
Conditions: cells persistently infected with Wolbachia before knock-down; no added drug
Detection: 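Imaged fluorescence in situ signal for Wolbachia 23S rRNA per DAPI-counted host cell, given as a robust z-score within each plate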
Scale: Wolbachia per cell robust z: higher = more Wolbachia per host cell than the plate typical
Call rule: 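Hit when robust z is 1.5 or more, or -1.5 or less, in at least two of three replicates; excludes dsRNAs with several or no targets, genes not expressed in JW18 and well A1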

The first 7 entries, to show the layout:
no.	Gene	DRSC id	Wolbachia per cell robust z, rep 1	Wolbachia per cell robust z, rep 2	Wolbachia per cell robust z, rep 3	call
1	CG32119	DRSC09248	0.718	0.465	0.334	inactive
2	CG32119	DRSC21462	-1.4	-0.0719	0.066	inactive
3	CG32119	DRSC29122	-1.76	-1.75	-2.16	inactive
4	Axud1	DRSC00270	0.136	0.392	0.227	inactive
5	CG7017	DRSC10762	-0.584	-0.836	-1.1	inactive
6	CG2701	DRSC18590	0.196	0.491	-0.553	inactive
7	asl	DRSC12319	1	-1.28	-1.46	inactive

The list itself, from the first entry:
no.	Gene	DRSC id	Wolbachia per cell robust z, rep 1	Wolbachia per cell robust z, rep 2	Wolbachia per cell robust z, rep 3	call
1	CG32119	DRSC09248	0.718	0.465	0.334	inactive
2	CG32119	DRSC21462	-1.4	-0.0719	0.066	inactive
3	CG32119	DRSC29122	-1.76	-1.75	-2.16	inactive
4	Axud1	DRSC00270	0.136	0.392	0.227	inactive
5	CG7017	DRSC10762	-0.584	-0.836	-1.1	inactive
6	CG2701	DRSC18590	0.196	0.491	-0.553	inactive
7	asl	DRSC12319	1	-1.28	-1.46	inactive
8	CG3652	DRSC00624	-0.0364	0.988	0.47	inactive
9	Tmc	DRSC10176	0.884	1.36	1.04	inactive
10	Tmc	DRSC10356	0.263	1.06	1.54	inactive
11	Tmc	DRSC27883	0.34	-0.379	-0.24	inactive
12	Rubicon	DRSC17889	0.113	-0.0706	0.141	inactive
13	Rubicon	DRSC25992	-1.84	1.02	0.136	inactive
14	RpL27A	DRSC00781	2.5	4.69	4.76	active
15	RpL27A	DRSC28466	1.63	2.44	2.39	active
16	CG4891	DRSC01936	-0.1	-1.1	0.209	inactive
17	CG4891	DRSC24341	0.247	-0.326	0.282	inactive
18	Xpc	DRSC07654	-2.63	0.849	-0.839	inactive
19	Rab3-GEF	DRSC19954	-1.32	0.14	-1.1	inactive
20	Rab3-GEF	DRSC19955	-0.539	-1.09	0.476	inactive
21	Rab3-GEF	DRSC27720	0.198	1.77	-0.443	inactive
22	CG12713	DRSC09900	-0.085	-0.908	-0.334	inactive
23	CG12713	DRSC24697	-6.25	-8.62	-0.874	active
24	Fkbp39	DRSC16667	0.745	0.254	-5.49	inactive
25	Fkbp39	DRSC23792	-0.791	-0.869	0.358	inactive
26	CG13193	DRSC06318	-1.51	0.545	-0.351	inactive
27	Drgx	DRSC00278	-0.747	-6.72	-0.638	inactive
28	Drgx	DRSC00537	-0.0457	-4.77	0.694	inactive
29	Drgx	DRSC28844	0.13	-0.327	-0.269	inactive
30	CG18659	DRSC06784	2.15	0.983	0.118	inactive
31	CG8132	DRSC16383	1.17	-1.22	-1.44	inactive
32	Ubc10	DRSC07568	0.134	-4.3	-0.366	inactive
33	Ubc10	DRSC23795	-0.493	2.25	1.19	inactive
34	CG17010	DRSC02559	-0.0247	-0.681	-0.0698	inactive
35	CG17010	DRSC29558	0.257	-0.636	-0.0685	inactive
36	Oseg5	DRSC03209	-0.36	-0.265	0.996	inactive
37	IFT20 + CG10395	DRSC22660	0.5	0.454	-0.808	inactive
38	Tsp42Ep	DRSC06871	-0.274	0.000616	0.132	inactive
39	mspo	DRSC07652	0.258	0.597	0.0724	inactive
40	mspo	DRSC28194	0.6	0.413	0.33	inactive
41	CG34163	DRSC38917	0.324	-0.516	-4.05	inactive
42	sinah	DRSC09910	-2.56	-0.144	-1.85	inactive
43	sinah	DRSC22181	0.535	-0.709	-1.36	inactive
44	5PtaseI	DRSC16269	-2.65	-0.98	-0.236	inactive
45	5PtaseI	DRSC22090	-2.48	0.868	0.0106	inactive
46	5PtaseI	DRSC28773	-1.08	-1.17	-3.26	inactive
47	TpnC4	DRSC04856	-1.52	-2.4	-0.148	inactive
48	CG6686	DRSC02979	1.17	0.000687	1.1	inactive
49	CG6686	DRSC27705	-0.7	-1.01	0.651	inactive
50	CG34232	DRSC36562	-1.49	1.25	-0.0953	inactive
51	sha	DRSC06331	-3.61	-3.42	-0.872	inactive
52	Gr39a	DRSC01841	-0.0653	-0.0364	-0.989	inactive
53	Gr39a	DRSC01842	-0.627	-0.00115	-0.499	inactive
54	Gr39a	DRSC27181	0.225	-0.773	-4.15	inactive
55	lili	DRSC14143	0.301	0.474	-0.0768	inactive
56	lili	DRSC29667	0.766	0.27	0.954	inactive
57	Gr66a	DRSC10783	0.128	0.105	-0.611	inactive
58	Las	DRSC11772	0.185	0.346	0.363	inactive
59	Las	DRSC26539	-0.345	-0.369	-0.644	inactive
60	CG17917	DRSC12570	-1.26	0.021	0.729	inactive
61	Cnb	DRSC08569	0.498	0.567	-0.788	inactive
62	Pep	DRSC11252	0.0286	0.455	0.338	inactive
63	PIG-H	DRSC14856	0.275	-12.4	0.0161	inactive
64	CG10674	DRSC09775	0.509	0.562	-1.03	inactive
65	VhaPPA1-2	DRSC16176	0.432	-7.2	-0.499	inactive
66	VhaPPA1-2	DRSC25591	0.26	-1	-0.916	inactive
67	CG2680	DRSC18466	0.458	0.0605	-3.52	inactive
68	CG2680	DRSC41351	-3.16	-0.198	0.284	inactive
